Source: patent US20070032460A1, “Use of voacamine and related compounds in the treatment of malaria” (priority 2005, published 2007)

Tests used:
[1] = test system: CQ-resistant (W2) strain of P. falciparum
[2] = test system: CQ-resistant (W2) strain of P. falciparum; test: microbe, parasite or virus in culture; settings: Plasmodium falciparum
[3] = W2, read-out: IC50 of each drug in combination VOA (1.0 μM) CQ (0.3 μM)
[4] = W2, read-out: IC50 of each drug in combination VOA (2.0 μM) CQ (0.2 μM)

Q: Decarbomethoxyvoacamine [DCV] was tested. Which IC50 ([1]; read-out: IC50 (10^−7 M) R) did it give?
A: 820 nM

Q: Which results are given for `C[C@@H]1CC[C@H]2[C@@H](C)C(=O)O[C@@H]3O[C@@]4(C)CC[C@@H]1[C@]32OO4` [QHS, qinghaosu, reference compound]?
A: IC50 ([1]; read-out: IC50, single drug): 57.6 ± 4.5 nM; IC50 ([1]; read-out: IC50 of each drug in combination VOA (1.0 μM) QHS (0.3 μM)): 22.8 ± 3.1 nM; IC50 ([1]; read-out: IC50 of each drug in combination VOA (2.0 μM) QHS (0.2 μM)): 9.3 ± 1.5 nM; IC50 ([1]; read-out: IC50 of each drug in combination VOA (3.0 μM) QHS (0.1 μM)): 5.7 ± 1.2 nM

Q: For Tabernamine, which IC50 ([1]; read-out: IC50 (10^−7 M) R) is on record?
A: 950 nM

Q: Which IC50 ([1]; read-out: IC50 (10^−7 M) R) does the source give for Voacamidine [VDN] here?
A: 980 nM

Q: For `CCN(CC)CCCC(C)Nc1ccnc2cc(Cl)ccc12` (stereo not shown) [CQ, chloroquine, reference compound], which IC50 [2, 3] is on record?
A: 25.6 ± 3.2 nM

Q: And the IC50 [2, 4]?
A: 9.1 ± 2.1 nM

Q: What does the source list for `CC=C1CN(C)C2Cc3c([nH]c4ccccc34)C(c3cc4[nH]c5c(c4cc3OC)CCN3CC4CC(CC)C3C5(C(=O)OC)C4)CC1C2C(=O)OC` (stereo not shown) [VOA, Voacamine]?
A: IC50 ([1]; read-out: IC50, single drug): 305 ± 29.2 nM; IC50 ([2]; W2, read-out: IC50 (10^−7 M) R): 290 nM; IC50 ([2]; W2, read-out: IC50, single drug): 290 ± 24.7 nM; IC50 [2, 3]: 79.5 ± 13.7 nM; IC50 ([2]; W2, read-out: IC50 of each drug in combination VOA (1.0 μM) QHS (0.3 μM)): 78.9 ± 14.5 nM; IC50 [2, 4]: 126 ± 16.1 nM; IC50 ([2]; W2, read-out: IC50 of each drug in combination VOA (2.0 μM) QHS (0.2 μM)): 98.1 ± 17.3 nM; IC50 ([2]; W2, read-out: IC50 of each drug in combination VOA (3.0 μM) CQ (0.1 μM)): 255 ± 39.6 nM; IC50 ([2]; W2, read-out: IC50 of each drug in combination VOA (3.0 μM) QHS (0.1 μM)): 297 ± 54.1 nM

Q: How did the IC50 ([1]; read-out: IC50 (10^−7 M) R) turn out when Ervahanine was run?
A: 880 nM

Like-named read-outs stand apart in the source and are kept apart here.
